Compound potency records, mixed from different reports. Data source: NIAID ChemDB in PubChem.

Common to all: growth or infection tests; agent: Candida albicans; endpoint: MFC

Neighbouring rows are from separate reports.

structure,strain,read by,value
c1cc2nc(CCCCc3nc4ccc(C5=NCCN5)cc4[nH]3)[nH]c2cc1C1=NCCN1,A39,,>100 µg/mL
CCCSc1cc(C(N)=S)ccn1,176,,200 µg/mL
O=C(Nc1nc2ccc(NC(=O)[C@@H]3CCC[C@H](NCc4ccc5ccccc5c4)C3)cc2s1)C1CCCC1,ATCC 90028,,0.78 µM
CCC(C)CC(C)CCCCCCCCC(=O)NC1CCCNC(=O)[C@@H]2[C@@H](O)CCN2C(=O)[C@H]([C@H](O)CC(N)=O)NC(=O)[C@H](C(O)[C@H](O)c2ccc(O)cc2)NC(=O)[C@@H]2C[C@@H](O)CN2C(=O)[C@H]([C@@H](C)O)NC1=O,MY1750,,16 µg/mL
CCCCCCSc1cc(C(N)=S)ccn1,176,,50 µg/mL
CCC(C)CC(C)CCCCCCCCC(=O)NC1CCCNC(=O)[C@@H]2[C@@H](O)[C@@H](C)CN2C(=O)[C@H]([C@H](O)CC(N)=O)NC(=O)[C@H](CCc2ccc(O)cc2)NC(=O)[C@@H]2C[C@@H](O)CN2C(=O)[C@H]([C@@H](C)O)NC1=O,MY1750,,0.5 µg/mL
N=C(N)c1ccc(OCCCC(O)COc2ccc(C(=N)N)cc2)cc1,102.96,,12.5 µg/mL
N/C(=N/N=C1CCCCCCC1)SCc1ccccc1Cl,,,>200 µg/mL
Clc1ccccc1C(c1ccccc1)(c1ccccc1)n1ccnc1,ATCC 10231,,20 µg/mL
CCC(C)CC(C)CCCCCCCCC(=O)N[C@H]1C[C@H](O)[C@@H](O)NC(=O)[C@@H]2[C@@H](O)[C@@H](O)CN2C(=O)[C@H]([C@H](O)CC(N)=O)NC(=O)[C@H](C(O)[C@H](O)c2ccc(O)cc2)NC(=O)[C@@H]2C[C@@H](O)CN2C(=O)[C@H]([C@@H](C)O)NC1=O,MY1208,,0.5 µg/mL
CC1(C)CC[C@]2(C(=O)O)CC[C@]3(C)C(=CC[C@@H]4[C@@]5(C)CC[C@H](OC6O[C@H](CO)[C@@H](O)[C@H](O)[C@H]6O)[C@@](C)(CO)[C@@H]5CC[C@]43C)[C@@H]2C1,ATCC 90029,,>100 µg/mL
COC1CC2CCC(C)C(O)(O2)C(O)C(O)N2CCCCC2C(=O)OC(C(C)CC2CCC(O)C(OC)C2)CC(=O)C(C)/C=C(\C)C(O)C(OC)C(=O)C(C)CC(C)/C=C/C=C/C=C/1C,WILD TYPE,,12.5 µg/mL
c1ccc(-c2csc(NN=C3CCCCCCCC3)n2)cc1,,,>100 µg/mL
C[C@H]1[C@H](O)[C@@H](C)/C=C/C=C/C=C/C=C/C=C/C=C/C=C/[C@H](O[C@@H]2O[C@H](C)[C@@H](O)[C@H](N)[C@@H]2O)C[C@@H]2O[C@](O)(C[C@@H](O)C[C@@H](O)CC[C@H](O)[C@@H](O)C[C@@H](O)CC(=O)O[C@H]1C)C[C@H](O)[C@H]2C(=O)O,ATCC 10231,,10 µg/mL
CCCCCCCCCCCCCSc1cc(C(N)=S)ccn1,176,,>200 µg/mL
C[C@H]1[C@H](O)[C@@H](C)/C=C/C=C/C=C/C=C/C=C/C=C/C=C/[C@H](O[C@@H]2O[C@H](C)[C@@H](O)[C@H](N)[C@@H]2O)C[C@@H]2O[C@](O)(C[C@@H](O)C[C@@H](O)CC[C@H](O)[C@@H](O)C[C@@H](O)CC(=O)O[C@H]1C)C[C@H](O)[C@H]2C(=O)O,ATCC 10231,visual reading,1 µg/mL
CCCCN(CCCOP(=O)([O-])OCC[N+](C)(C)C)c1c([N+](=O)[O-])cc(C(F)(F)F)cc1[N+](=O)[O-],Clinical isolate 44A,broth dilution,>16 µg/mL
CC1(C)CC[C@]2(C(=O)O)CC[C@]3(C)C(=CC[C@@H]4[C@@]5(C)CC[C@H](OC6O[C@H](CO)[C@@H](O)[C@H](O)[C@H]6OC6O[C@H](CO)[C@@H](O)[C@H](O)[C@H]6O)[C@@](C)(CO)[C@@H]5CC[C@]43C)[C@@H]2C1,Y0109,,>100 µg/mL
COc1c(O)c2c(=O)cc(OC)c3c4c(OC)cc(=O)c5c(O)c(OC)c6c(c(c1CC(C)=C6OC(C)=O)c23)c54,,,>100 µg/mL
C[C@@H]1O[C@@H](O[C@H]2[C@H](O)[C@@H](O)C(OC3[C@H](O[C@H]4CC[C@@]5(C)[C@@H](CC[C@]6(C)[C@@H]5CC=C5[C@@H]7CC(C)(C)CC[C@]7(C(=O)O)CC[C@]56C)[C@]4(C)CO)OC[C@H](O)[C@@H]3O)O[C@@H]2CO)[C@H](O)[C@H](O)[C@H]1O,ATCC 90029,,25 µg/mL
N/C(=N/N=C1CCCCCCC1)SCc1ccc(Cl)cc1Cl,,,>200 µg/mL
CC(C)N=C(N)c1ccc2nc(-c3ccc4c(c3)Cc3cc(-c5nc6ccc(C(N)=NC(C)C)cc6[nH]5)ccc3-4)[nH]c2c1,Isolate 2281,,6.25 µg/mL
CCCCCCCCSc1cc(C(N)=S)ccn1,42,,>200 µg/mL
CCCCN(CCCCCCOP(=O)([O-])OCC[N+](C)(C)C)c1c([N+](=O)[O-])cc(C(F)(F)F)cc1[N+](=O)[O-],Clinical isolate 44A,broth dilution,>16 µg/mL
COC1CC2CCC(C)C(O)(O2)C(=O)C(=O)N2CCCCC2C(=O)OC(C(C)CC2CCC(O)C(OC)C2)CC(=O)C(C)/C=C(\C)C(O)[C@@](OC)(N(O)C(=O)OCC(C)C)C(=O)C(C)CC(C)/C=C/C=C/C=C/1C,RBP1/RBP1,,>100 µg/mL
CC1(C)CC[C@]2(C(=O)O)CC[C@]3(C)C(=CC[C@@H]4[C@@]5(C)CC[C@H](O[C@@H]6OC[C@H](O)[C@H](O)C6O)[C@@](C)(CO)[C@@H]5CC[C@]43C)[C@@H]2C1,Clinical isolates,,>100 µg/mL
Nc1[nH]c(=O)ncc1F,ATCC 10231,,40 µg/mL
C[N+](C)(C)CCOP(=O)([O-])OCCCCCCCCCCCC1C2CC3CC(C2)CC1C3,Clinical isolate 44A,broth dilution,8 µg/mL

An empty or dashed field is not shown.